Assay results taken from patent publication US12029777B2, “Serine proteinase inhibitors: Serp-1 and Serp-1 RCL-derived peptides effect on microbiome composition and uses thereof” (ARIZONA BOARD OF REGENTS ON BEHALF OF ARIZONA STATE …, priority 2019, dated 2024).

Test system: gut bacterial microbiome
Test: 16S rRNA gene amplicon sequencing of large intestine, 3 days post MHV-68 infection
Format: in vivo, mice
Conditions: for relative abundance of Serp-1- or S-7-associated ASVs in antibiotic pre-treated mice: +Abx compared to No Abx; for diversity of microbiota (Shannon Index), mean / association of ASV4 with treatment: absence of antibiotics; for diversity of microbiota (Shannon Index), mean: 3 days post-infection, saline mean=0.385; for association of ASV4 with treatment: compared to saline treated mice

Row | Molecule | relative abundance of Serp-1- or S-7-associated ASVs in antibiotic pre-treated mice | diversity of microbiota (Shannon Index), mean | association of ASV4 with treatment
1 | GTTASSDTAITLIPR (Reactive Center Loop Polypeptide sequence of for a serine protease inhibitor) [S-7] | decreased | 0.862 | consistently associated
2 | Serp-1: secreted myxomavirus-derived serine protease inhibitor (serpin), purified protein, SEQ ID NO: 1 (protein, Serp-1 recombinant polypeptide) MKYLVLVLCLTSCACRDIGLWTFRYVYNESDNVVFSPYGLTSALSVLRIAAGGNTKREIDVPESVVEDSDAFLALRELFVDASVPLRPEFTAEFSSRFNTSVQRVTFNSENVKDVINSYVKDKTGGDVPRVLDASLDRDTKMLLLSSVRMKTSWRHVFDPSFTTDQPFYSGNVTYKVRMMNKIDTLKTETFTLRNVGYSVTELPYKRRQTAMLLVVPDDLGEIVRALDLSLVRFWIRNMRKDVCQVVMPKFSVESVLDLRDALQRLGVRDAFDPSRADFGQASPSNDLYVTKVLQTSKIEADERGTTASSDTAITLIPRNALTAIVANKPFMFLIYHKPTTTVLFMGTIT | decreased | 1.270 | consistently associated
